Test results reported in patent US20160264648A1 (OSAKA UNIVERSITY, published 2016).

B1: human monoclonal antibody (HuMAb) 2H5 (antibody, V domains shown)
VH: QVQLVQSGAEVKKPGSSVKVSCKSSGGNFNNYAVSWVRQAPGQGLEWMGGISPIFGSTNHAQKFQGRVTISADIFTNTAYMELSSLRSDDTAIYYCARGRGYYFYHAMDVWGQGSTVTVSS
VL: QSVLTQPPSVSAAPGQKVTISCSGSSSNIGHNFVSWYQQLPATAPKLLIYDTDKRPSGIPDRFSGSKSGTSATLGITGLQTGDEADYYCGTWDSSLSSVIFGGGTKLTVL
B2: human monoclonal antibody (HuMAb) 1H11 (antibody, V domains shown)
VH: B1 VH
VL: QSALTQPASVSGSPGQSITISCTGTSSDVGGYNYVSWYQQHPGEAPKLMISDVSNRPSGVSNRFSGSKSGNTASLTISGLQAEDEADYYCTSYTSSNTLVFGGGTKLTVL

Target: hemagglutinin (HA) of influenza A virus A/California/07/2009 (H1N1pdm) (influenza A virus A/California/07/2009 …)
Assay: cell-based or functional assay

| Binder | Neutralization activity (VN50 value µg/ml) [µg/mL] |
| --- | --- |
| B1 | 2.82 |
| B2 | 1.52 |
